Literature values in PMC5572697, “A first-in-human study of the novel HIV-fusion inhibitor C34-PEG4-Chol” (Scientific Reports, 2017).

Test system: patients
Details: enfuvirtide, pivotal Phase 3 studies; cited from earlier work

In the case of enfuvirtide, the “Frequency of mild/moderate ISRs: Erythema / Redness” value is given as 90.8, the “Frequency of mild/moderate ISRs: Induration / Swelling” value is given as 94.4 and the “Frequency of mild/moderate ISRs: Nodules/cysts” value is given as 81.6. For the same substance, the “Frequency of mild/moderate ISRs: Pain” value was 93.1 and the “Frequency of mild/moderate ISRs: Tenderness” value was 89.8.
